Results deposited as PubChem BioAssay AID624099 (ICCB-Longwood, 2012).
Aim: 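Knock-downs relieving repression by E2 of an HPV18 LCR luciferase reporter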 (primary screen). Cells: human C33A cervical carcinoma cells (HPV-negative) stably expressing BPV1 E2 and an HPV18 LCR luciferase reporter. Reagents: siRNA pool against human genes, 40 nM. Timing: 72 h. Detection: 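HPV18 LCR reporter light per well, converted to plate-wise z-scores that exclude control wells, and averaged over triplicate plates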. Scale: mean z-score and z-score: higher = stronger reporter signal, weaker E2 silencing. Rule for the call: 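Hit if mean z-score reaches 2 and two or more of three replicate z-scores also reach 2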.
In all, the deposit lists about 21,000 reagents; shown is a part drawn at random. Over the whole deposit, 497 (2.4%) were called active. 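Higher z means weaker E2 silencing; only reporter increases were scored, and knock-downs that hurt cell survival may mask genuine repressor factors.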

gene | PubChem SID | mean z-score | z-score, replicate A | z-score, replicate B | z-score, replicate C | activity call
ANKFY1 (ankyrin repeat and FYVE domain containing 1) | SID134317395 | -1.09 | -0.6 | -1.36 | -1.31 | inactive
HMX3 (H6 family homeobox 3) | SID134326530 | 0.28 | 0.16 | 0.35 | 0.33 | inactive
CRP (C-reactive protein) | SID134323170 | -0.45 | -0.43 | -0.65 | -0.28 | inactive
DKK1 (dickkopf Wnt signaling pathway inhibitor 1) | SID134310104 | 1.64 | 1.37 | 1.86 | 1.7 | inactive
CDK15 (cyclin dependent kinase 15) | SID56478852 | 0.39 | 0.44 | 0.55 | 0.19 | inactive
DHRS7B (dehydrogenase/reductase 7B) | SID134314450 | -0.81 | -0.64 | -0.63 | -1.15 | inactive
CSN1S2AP (casein alpha s2 like A, pseudogene) | SID134326001 | -1.16 | -1.24 | -1.11 | -1.12 | inactive
C1R (complement C1r) | SID134311222 | 0.93 | 1.1 | 0.92 | 0.77 | inactive
LINC01591 (long independently transcribed non-coding RNA 1591) | SID134326390 | 0.4 | 0.33 | 0.61 | 0.26 | inactive
ATP8B1 (ATPase phospholipid transporting 8B1) | SID134323743 | 0.31 | 0.12 | 0.34 | 0.48 | inactive
SLC7A3 | SID134312660 | 1.61 | 1.48 | 1.6 | 1.76 | inactive
DHX57 (DExH-box helicase 57) | SID134319636 | 0.43 | 0.54 | 0.27 | 0.49 | inactive
CDKN1A (cyclin dependent kinase inhibitor 1A) | SID56478654 | 0.47 | 0.46 | 0.61 | 0.33 | inactive
DZIP3 (DAZ interacting zinc finger protein 3) | SID134312038 | -0.78 | -1.36 | -0.99 | 0.02 | inactive
CRYGS (crystallin gamma S) | SID134317126 | 0.46 | 0.49 | 0.35 | 0.53 | inactive
FSD2 (fibronectin type III and SPRY domain containing 2) | SID134325389 | 0.43 | 0.48 | 0.61 | 0.19 | inactive
PITX3 (paired like homeodomain 3) | SID134321265 | 0.67 | 0.65 | 0.66 | 0.7 | inactive
KIRREL3 (kirre like nephrin family adhesion molecule 3) | SID134325033 | 1.24 | 1.48 | 1.19 | 1.04 | inactive
CCNB3 (cyclin B3) | SID56478569 | 0.42 | 0.3 | 0.5 | 0.45 | inactive
LOC401052 (retired record) | SID134327300 | 0.44 | -0.02 | 0.57 | 0.76 | inactive
POC5 (POC5 centriolar protein) | SID134320891 | -0.55 | -0.46 | -0.52 | -0.66 | inactive
LZTS2 (leucine zipper tumor suppressor 2) | SID134326510 | -0.07 | -0.56 | 0.37 | -0.01 | inactive
TMEM174 (transmembrane protein 174) | SID134320710 | 0.67 | 0.78 | 0.62 | 0.62 | inactive

Single entries from above:
Result for PITX3 (paired like homeodomain 3) [SID134321265] in “z-score, replicate A”: 0.65
Result for DKK1 (dickkopf Wnt signaling pathway inhibitor 1) [SID134310104] under “activity call”: inactive
Result of POC5 (POC5 centriolar protein) [SID134320891] in “z-score, replicate B”: -0.52
